# Source: ChEMBL document CHEMBL4665731, “Antifungal trichothecene sesquiterpenes obtained from the culture broth of marine-derived Trichoderma cf. brevicompactum and their structure-activity relationship” (2020)
# What was measured:
# Rhizopus arrhizus = experiment: Antifungal activity against Rhizopus oryzae NBRC 4705 assessed as reduction in fungal growth incubated for 24 hrs by CLSI broth microdilution method
# Candida albicans = experiment: Antifungal activity against Candida albicans ATCC 90029 assessed as reduction in fungal growth incubated for 24 hrs by CLSI broth microdilution method
# Aspergillus fumigatus = experiment: Antifungal activity against Aspergillus fumigatus NBRC 33022 assessed as reduction in fungal growth incubated for 24 hrs by CLSI broth microdilution method
# Cryptococcus neoformans [1] = experiment: Antifungal activity against Cryptococcus neoformans ATCC 90113 assessed as reduction in fungal growth incubated for 72 hrs by CLSI broth microdilution method; conditions: time 24.0 hrs
# Cryptococcus neoformans [2] = experiment: Antifungal activity against Cryptococcus neoformans ATCC 14116 assessed as reduction in fungal growth incubated for 72 hrs by CLSI broth microdilution method; format: functional
SMILES,MIC (Rhizopus arrhizus) [µg/mL],MIC (Candida albicans) [µg/mL],MIC (Aspergillus fumigatus) [µg/mL],MIC (Cryptococcus neoformans [1]) [µg/mL],MIC90 (Cryptococcus neoformans [2]) [µg/mL]
CC(=O)O[C@@H]1C[C@H]2O[C@@H]3C=C(C)CC[C@]3(C)[C@]1(C)[C@]21CO1,> 32,0.125,> 32,2,
C/C=C/C=C\C(=O)O[C@@H]1[C@@H](O)[C@H]2O[C@@H]3C=C(C)CC[C@]3(C)[C@]1(C)[C@]21CO1,,,,,1.6
CC1=C[C@H]2O[C@@H]3[C@H](O)[C@@H](O)[C@](C)([C@@]2(C)CC1)[C@]31CO1,,,,,25
C/C=C/C=C/C(=O)O[C@@H]1[C@@H](O)[C@H]2O[C@@H]3C=C(C)CC[C@]3(C)[C@]1(C)[C@]21CO1,,,,,6.3
